Measurements taken from paper PMC13342644, “Structural basis for transport and inhibition of nucleotide sugar transport in pathogenic fungi” (Nature Communications, 2026).

Target: T1, CaVrg4 Lys356Arg mutant (Candida albicans, UniProt Q5A477, K356R)
T1 sequence (Q5A477 34-371 K356R limits assumed): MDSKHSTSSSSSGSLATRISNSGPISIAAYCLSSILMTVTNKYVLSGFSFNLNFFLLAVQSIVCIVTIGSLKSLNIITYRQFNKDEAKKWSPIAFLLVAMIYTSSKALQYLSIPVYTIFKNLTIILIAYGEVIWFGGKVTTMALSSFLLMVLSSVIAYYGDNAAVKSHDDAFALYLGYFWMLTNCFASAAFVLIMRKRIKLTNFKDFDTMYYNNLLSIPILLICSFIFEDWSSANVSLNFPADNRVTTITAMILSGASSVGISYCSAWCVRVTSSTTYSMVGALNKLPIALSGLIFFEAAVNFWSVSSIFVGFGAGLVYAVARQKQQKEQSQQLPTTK

Compound: C[C@@H]1O[C@H](OP(=O)(O)OP(=O)(O)OC[C@H]2O[C@@H](n3cnc4c(=O)[nH]c(N)nc43)[C@H](O)[C@@H]2O)[C@@H](O)[C@H](O)[C@@H]1O [GDP-fucose]
- GDP-fucose recognition, in words: did not improve
